{"source": "PubChem BioAssay AID504761 | Drosophila RNAi Screening Center, 2011", "test": "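Insect host genes that dengue virus relies on to spread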 (primary screen)", "cells": "D.Mel-2 cells from Drosophila", "reagents": "long dsRNA against Drosophila genes", "challenge": "infection with dengue virus type 2; dose and infection time not stated", "detection": "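Per well on two replicate plates, imaging gave the percent of cells positive for viral envelope protein, ranked by infection, and a nuclear count of cells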", "direction": "infection score: higher = more virus-infected cells; cell count: higher = more cells in the well", "hit rule": "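Very low infection ranking in both replicate wells (chance probability at most 0.065), then a retest showing infection dropped 1.5-fold or more at p below 0.05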", "calls": "active = confirmed: knock-down lowers infection; inactive = not picked or not confirmed", "note": "The screen tested about 22,000 reagents; shown is a random part of those that have a named target and a result. Over the whole deposit, 116 (0.52%) were called active. 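Calls depend on retest data that are not deposited; infection was ranked per plate without normalising between plates; the unit of the infection score is not given.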 Raw values are not corrected between plates. A number with no mark means an inactive call. Names joined by + are all predicted targets of the reagent. Further read-outs or replicates are left out here. Not stated in the record: the amount of reagent, the time to read-out."}
{"Target gene": "mRpS21 (mitochondrial ribosomal protein S21)", "DRSC id": "DRSC12965", "infection score, replicate 1": 9.41, "cell count, replicate 1": 4886}
{"Target gene": "mRpS21 (mitochondrial ribosomal protein S21)", "DRSC id": "DRSC21357", "infection score, replicate 1": 8.06, "cell count, replicate 1": 5584}
{"Target gene": "mRpS21 (mitochondrial ribosomal protein S21)", "DRSC id": "DRSC29842", "infection score, replicate 1": 13.6, "cell count, replicate 1": 5642}
{"Target gene": "lncRNA:CR42491 + RpL22", "DRSC id": "DRSC25025", "infection score, replicate 1": 2.69, "cell count, replicate 1": 1375}
{"Target gene": "CG10597", "DRSC id": "DRSC19357", "infection score, replicate 1": 10.3, "cell count, replicate 1": 5979}
{"Target gene": "CG10597", "DRSC id": "DRSC25101", "infection score, replicate 1": 2.95, "cell count, replicate 1": 6029}
{"Target gene": "CG11885", "DRSC id": "DRSC00329", "infection score, replicate 1": 5.59, "cell count, replicate 1": 5940}

An excerpt from the list above, for reference:
{"Target gene": "mRpS21 (mitochondrial ribosomal protein S21)", "DRSC id": "DRSC29842", "infection score, replicate 1": 13.6, "cell count, replicate 1": 5642}
{"Target gene": "lncRNA:CR42491 + RpL22", "DRSC id": "DRSC25025", "infection score, replicate 1": 2.69, "cell count, replicate 1": 1375}

The list goes on.
{"Target gene": "CG7382", "DRSC id": "DRSC03052", "infection score, replicate 1": 7.93, "cell count, replicate 1": 5988}
{"Target gene": "CG7382", "DRSC id": "DRSC27512", "infection score, replicate 1": 5.23, "cell count, replicate 1": 6519}
{"Target gene": "CG11263", "DRSC id": "DRSC09832", "infection score, replicate 1": 0.68, "cell count, replicate 1": 6326}
{"Target gene": "CG10252", "DRSC id": "DRSC14221", "infection score, replicate 1": 17.5, "cell count, replicate 1": 5845}
{"Target gene": "CtsB (Cathepsin B)", "DRSC id": "DRSC19361", "infection score, replicate 1": 9.9, "cell count, replicate 1": 7171}
